Data on 1 sequence can be found in PMC9178039.

Construct, isoform or probe ends are uncertain for at least one entry. For some assays here: At least one verdict rests on a figure or table, not on a statement of the authors.

The subject of data set [1] is phosphorylated CarR (RstA)-His6. The experiment in a line: EMSA. The conditions noted are these: 30 mM acetyl phosphate, EMSA: 5 mM HEPES pH 7.9, 40 mM KCl, 1 mM DTT, 0.1 mM EDTA, 5% glycerol, 5 ng probe, 20 min, room …, recombinant protein, protein details: C-terminal His6 (pET28a), label: 6-FAM, probe letters rebuilt from the primers and the genome.
For data set [2] the test system is unchanged. The experiment in a line: competition with a labelled probe. The conditions noted are these: 30 mM acetyl phosphate, unlabeled PalmE, shift lost at 100-fold excess, EMSA: 5 mM HEPES pH 7.9, 40 mM KCl, 1 mM DTT, 0.1 mM EDTA, 5% glycerol, 5 ng probe, 20 min, room temperature, recombinant protein, protein details: C-terminal His6 (pET28a), label: 6-FAM, probe letters rebuilt from the primers and the genome.

Consider “CTGTTTAACCCATAATGCAGGGGCATGTCGGTTAGCCTGAATAGCCGCCAAAATAGAGTGTCTTGTCTCGCAGTACATCGCCATTTTATTGATAAATTGGTTATGCACGACACCATAACCCTCTCTCTGTAACAAATCTGTCGCAGAATTGTATGGCATTGTCAGCTACCGAGCGCCCGACCTCCTTTCTATGGCGCGAAGGTCTACAACCTATAATCGCAACTAGTTGTCGAGCAACCGATTGACAATAGACATATCAAAATGGCGTTTCGTAGTGATCGCGTAGAAGCTTTCGGTCACCGCGTCCAGTGTTCCGTAATTGCACAGCCGTCCTGTTTCAATTTCATCTTGTACCACGACCTCGGGCACCACAGTGACGCCTTCCACATCGCGAGCCAATAGACGCAACATC (double strand) [PalmE]”, for which the binding result in data set [1] and in data set [2] was “binds” throughout.
